Data on five compounds can be found in patent US12122786B2, “Inhibitors of cyclic mono- and di-nucleotide phosphodiesterases and the uses thereof” (priority 2020, dated 2024).

The chains behind the UniProt entries cited, without tags or fusion partners.
UniProt P71615, whole entry: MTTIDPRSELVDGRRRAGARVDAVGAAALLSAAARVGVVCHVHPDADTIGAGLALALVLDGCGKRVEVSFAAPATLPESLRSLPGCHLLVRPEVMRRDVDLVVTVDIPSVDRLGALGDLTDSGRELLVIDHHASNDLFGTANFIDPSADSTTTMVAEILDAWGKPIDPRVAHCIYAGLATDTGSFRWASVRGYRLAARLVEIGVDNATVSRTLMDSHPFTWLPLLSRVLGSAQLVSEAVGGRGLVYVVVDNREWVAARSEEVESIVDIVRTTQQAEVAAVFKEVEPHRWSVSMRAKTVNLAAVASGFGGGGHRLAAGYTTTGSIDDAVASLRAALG

Assay [1] deals with T1, MTB CdnP (Mycobacterium tuberculosis, UniProt P71615). In words: IC50 determination of MTB CdnP inhibition, coralyne assay. Particulars: read-out: IC50 of MTB CdnP enzymatic activity inhibition, 50 nM MTB CdnP and 80 μM c-di-AMP.
Assay [2] concerns the target T1, MTB CdnP. Briefly: HPLC analysis of c-di-AMP cleavage by MTB CdnP. The note with it: 20 μM compound, 100 nM MTB CdnP, 70 μM c-di-AMP, 37° C.
In assay [3] the target is T1, MTB CdnP. Briefly: Radioisotope thin layer chromatography (TLC) of c-di-AMP cleavage by MTB CdnP. Particulars: 0.5 μM MTB CdnP, 1 h at 37° C.; for inhibitory effect on c-di-AMP hydrolysis by MTB CdnP (TLC) at 20 μM: 20 μM concentration; for inhibition of c-di-AMP hydrolysis by MTB CdnP (TLC), varying inhibitor concentrations: 20 to 150 μM inhibitor.

Broadly, the IC50 is the point on the concentration scale where inhibition reaches its midpoint.

Each structure is given as a SMILES string.

Take `COc1ccc(Cl)cc1NC(=O)Cn1cnc2sc3c(c2c1=O)CCC(C)C3` (stereo not shown): the IC50 on MTB CdnP [1] was determined as 21.4 µM.

Take `Cc1ccc(C)c(NC(=O)Cn2cnc3ccccc3c2=O)c1`: the “inhibition of c-di-AMP cleavage by MTB CdnP (HPLC), 3 h incubation” value (shortened to “inhibition of c-di-AMP cleavage”) on MTB CdnP [2] is given as “lower enzymatic inhibition”. Moreover, on MTB CdnP [3], the “inhibitory effect on c-di-AMP hydrolysis by MTB CdnP (TLC) at 20 μM” value is recorded as “did not show any inhibitory effect” and the “inhibition of c-di-AMP hydrolysis by MTB CdnP (TLC), varying inhibitor concentrations” value is given as “least potent compounds”. On MTB CdnP [1], the IC50 came out at 34.6 µM.

Turning to `Cc1ccc(Cl)cc1NC(=O)Cn1cnc2ccccc2c1=O`, the “inhibition of c-di-AMP cleavage” value at MTB CdnP [2] is “most potent inhibitory effects”. In addition, the concentration for half-maximal inhibition (IC50) on MTB CdnP [1] is over 60 µM.

In the case of `Cc1ccc([N+](=O)[O-])cc1NC(=O)Cn1cnc2ccccc2c1=O`, the “inhibition of c-di-AMP cleavage” value on MTB CdnP [2] is “most potent inhibitory effects”. Moreover, at MTB CdnP [1], the IC50 worked out at 24.5 µM.

For the compound `CN(C)c1nc(-c2cccnc2)nc2c1CCN(C(=O)c1cccc(O)c1)C2`, the “inhibition of c-di-AMP cleavage” value on MTB CdnP [2] was “did not show any activity”. For the same compound, at MTB CdnP [3], the “inhibitory effect on c-di-AMP hydrolysis by MTB CdnP (TLC) at 20 μM” value is on record as “very little inhibitory effect” and the “inhibition of c-di-AMP hydrolysis by MTB CdnP (TLC), varying inhibitor concentrations” value is recorded as “least potent compounds”. Besides, the IC50 at MTB CdnP [1] was 48.9 µM.
